A mixed list of measured activities; the numbers were collected in NIAID ChemDB.

Common to all: whole-cell or culture tests; organism: Herpes simplex virus 1; method: plaque count; read-out: EC50

An empty or dashed field is not shown. Neighbouring rows are from separate reports. ECn is the concentration giving n% inhibition of infection, replication or growth.

compound	cell line	strain	value
Cn1cc(C(=O)NCc2ccc(Cl)cc2)c(=O)c2cc(CN3CCOCC3)ccc21	HFF	SC16	2.5 µM
Nc1nc2c(ncn2CC[C@H](O)CO)c(=O)[nH]1	VERO	7935-72	8 µM
Nc1nc2c(ncn2CCC(CO)CO)c(=O)[nH]1	VERO	KD3	1.7 µM
Nc1nc2c(ncn2CCCCO)c(=O)[nH]1	VERO	7935-72	2 µM
C[C@@H](c1ccccc1)N(CC(=O)Nc1ccc(-c2csc(N)n2)cc1)C(=O)c1ccncc1	BHK-21/C13	615.9	0.13 µM
O=C(O)P(=O)(O)O	MEF	Wilson	8 µg/mL
Cc1cn([C@@H]2O[C@H](CO)[C@@H](O)[C@@H]2O)c(=O)[nH]c1=O	VERO	WT-34	1.6 µM
O=C(NCc1ccc(Cl)cc1)c1c[nH]c2ccc(C#CCO)cc2c1=O		KOS	7.4 µM
Nc1ccn(C[C@@H](CO)OCP(=O)(O)O)c(=O)n1	HFF	E-115	2.7 µg/mL
Nc1nc2c(ncn2COC(CO)CO)c(=O)[nH]1	RK-13	ICI	0.48 µM
Nc1nc2c(ncn2CC(CO)CCO)c(=O)[nH]1	HEL	C42	0.2 µM
O=c1[nH]c(=O)n([C@H]2O[C@@H](CO)[C@@H](O)[C@@H]2O)cc1C(F)(F)F	HELF	77	85 µM
Cn1cc(C(=O)NCc2ccc(Cl)cc2)c(=O)c2cc(CN3CCOCC3)ccc21	VERO	DJL-M1	>20 µM
Nc1nc(=O)n([C@@H]2CC[C@H](CO)O2)cc1F	HEL	VR-3	3.7 µM
O=c1[nH]c(=O)n([C@H]2C[C@H](O)[C@@H](CO)O2)cc1I	HELF	42-78	100 µM
Cn1cc(C(=O)NCc2ccc(Cl)cc2)c(=O)c2cc(/C=C\CO)cc(F)c21	VERO	F	2.5 µM
Nc1nc2c(ncn2CC[C@@H](O)CO)c(=O)[nH]1	VERO	C1 (101)	6.8 µM
O=c1[nH]c(=O)n([C@H]2C[C@H](O)[C@@H](CO)O2)cc1/C=C/Br	HELF	77	0.026 µM
Nc1ncnc2c1ncn2[C@@H]1O[C@H](CO)[C@@H](O)[C@@H]1O	RK-13	76	30 µM
O=c1[nH]c(=O)n([C@@H]2O[C@H](CO)[C@@H](O)[C@@H]2O)cc1I	HELF	77	70 µM
O=C(NCc1ccc(Cl)cc1)c1cn2c3c(cc(CN4CCOCC4)cc3c1=O)OC(c1cccnc1)C2	HFF	11360 (ACV-resistant)	5.3 µM

Repeating the first 3 entries:

compound	cell line	strain	value
Cn1cc(C(=O)NCc2ccc(Cl)cc2)c(=O)c2cc(CN3CCOCC3)ccc21	HFF	SC16	2.5 µM
Nc1nc2c(ncn2CC[C@H](O)CO)c(=O)[nH]1	VERO	7935-72	8 µM
Nc1nc2c(ncn2CCC(CO)CO)c(=O)[nH]1	VERO	KD3	1.7 µM